This data set deals with O=C(O)C[C@@H]1CC[C@@H](C(=O)O)N1. Description: purified protein. As to conditions: pH 8.0, 25 °C, saturating ATP (2-4 mM), ionic strength 0.15.

From PMC2833280 come the findings set out here.

Consider “CPS (carbapenam synthetase) (Pectobacterium carotovorum subsp. carotovorum; E380D)”, for which the Km (in general, the concentration of substrate that gives half-maximal velocity) was 360 ± 60 µM; the kcat – broadly, the maximal rate divided by the concentration of active sites – was found to be 0.26 ± 0.02 s⁻¹; the kcat/Km (commonly the second-order rate constant that governs catalysis at low substrate concentration) turned out to be 720 M⁻¹ s⁻¹.

Regarding “CPS (carbapenam synthetase) (Pectobacterium carotovorum subsp. carotovorum; E380D/Y345F)”, the Km turned out to be 490 ± 60 µM, the kcat was found to be 0.0059 s⁻¹ and the kcat/Km amounted to 12 M⁻¹ s⁻¹.

For “CPS (carbapenam synthetase) (Pectobacterium carotovorum subsp. carotovorum; E380Q)”, the Km came to 75 ± 15 µM, the kcat amounted to 0.020 ± 0.001 s⁻¹ and the kcat/Km is 270 M⁻¹ s⁻¹.

Regarding “CPS (carbapenam synthetase) (Pectobacterium carotovorum subsp. carotovorum; E380Q/Y345F)”, the Km came to 900 ± 200 µM, the kcat is 0.011 s⁻¹ and the kcat/Km was 11 M⁻¹ s⁻¹.

As for “CPS (carbapenam synthetase) (Pectobacterium carotovorum subsp. carotovorum; Y345F)”, the Km is 270 ± 40 µM, the kcat stood at 0.17 ± 0.01 s⁻¹ and the kcat/Km worked out at 630 M⁻¹ s⁻¹.
